Key:
mutant (RQW) GAO = mutant (RQW) GAO (Gibberella zeae, UniProt P0CS93, G236E/M111V/N576D/Q447T/R371K/S51P/V535A/W331F); conditions: for Mutant Activity: mutant RQW, substrate concentration in parentheses in each cell; for Relative rate of reaction, Mutant M-RQW: relative to D-galactose (=100)
wild-type (Fusarium GAO) = wild-type (Fusarium GAO) (Gibberella zeae, UniProt P0CS93); assay: ABTS-HRP activity assay of purified wild-type GAO towards various substrates; conditions: for Wild-Type Activity: substrate concentration in parentheses in each cell; for Relative rate of reaction, Wild-Type GAO: relative to D-galactose (=100)
M-RQW = M-RQW (Gibberella zeae, UniProt P0CS93, G236E/M111V/N576D/Q447T/R371K/S51P/V535A/W331F)

Molecule	Mutant Activity (mutant (RQW) GAO)	Wild-Type Activity (wild-type (Fusarium GAO))	Relative rate of reaction, Mutant M-RQW (mutant (RQW) GAO)	Relative rate of reaction, Wild-Type GAO (wild-type (Fusarium GAO))	oxidation product with M-RQW by GC-MS (M-RQW; 50 mM substrate, room temperature)	decrease in Km (mutant (RQW) GAO; M-RQW versus wild-type enzyme)	Km (wild-type (Fusarium GAO); wild-type enzyme)	regioselectivity of oxidation by M-RQW (NMR) (M-RQW; 200 mM substrate)
CO[C@H]1OC(C)[C@@H](O)C(O)C1O (some centres unmarked)	0.34 (0.42 M) U/mg	0 (1 M) U/mg						
OC[C@H]1O[C@@H](O[C@H]2[C@H](O)[C@@H](O)[C@H](O)O[C@@H]2CO)[C@H](O)[C@@H](O)[C@H]1O	6.76(67.8 mM) U/mg	58.3 (50 mM) U/mg	18.7	48				
2-butanol					2-butanone			
OCc1ccccn1			180000	0.6				
CO[C@H]1OC(CO)[C@@H](O)C(O)C1O (some centres unmarked)	0.19 (0.42 M) U/mg	0 (0.5 M) U/mg						
OCc1ccncc1	41.7 (0.5 mM) U/mg	7.74 (100 mM) U/mg	81000	1.3				
CO[C@@H]1CC(O)[C@H](O)C(CO)O1 (some centres unmarked)	0.98 (0.42 M) U/mg	0 (50 mM) U/mg						
CO[C@@H]1OC(C)[C@@H](O)C(O)C1O (some centres unmarked)	0.10 (0.42 M) U/mg	0 (1 M) U/mg						
Allyl Alochol	121 (50 mM) U/mg	0.946 (0.5 M) U/mg	2500	0.3				
OCc1cccnc1			35000	5				
CO[C@@H]1OC(CO)[C@H](O)C(O)C1O (some centres unmarked)	9.21 (0.1 M) U/mg	155 (50 mM) U/mg						
CO[C@@H]1OC(CO)[C@@H](O)C(O)C1O (some centres unmarked)	0.683 (0.6 M) U/mg	0 (1 M) U/mg						
O=C(CO)CO	52.2 (0.3 mM) U/mg	41.7 (3 mM) U/mg	1600	200		more than 6 fold	17 mM	
O=CC[C@H](O)[C@H](O)CO	1.40 × 10^−4(0.25 M) U/mg	0 (50 mM) U/mg						
CO[C@H]1CC(O)[C@H](O)C(CO)O1 (some centres unmarked)	1.32 (0.42 M) U/mg	0 (1 M) U/mg	3.3	0				No oxidation was detected at the other positions
C[C@@H](O)[C@H](O)[C@H](O)[C@@H](O)C=O	2.29 × 10^−3(0.27 M) U/mg	8.56 (50 mM) U/mg						
2-Propanol	2.98 (0.5 M) U/mg	2.09 × 10^−2(0.5 M) U/mg	5.7	0				
D-Fructose	8.10 (0.25 M) U/mg	0 (1 M) U/mg						
CCCCCCC(C)O (centres unmarked)	2.85(Saturated) U/mg	0 (Saturated) U/mg						
3-Buten-2-ol	3.52 (0.5 M) U/mg	3.52 × 10^−2(0.5 M) U/mg	6.9	0				

Reference: patent publication US7220563B2 (priority 2002, dated 2007)
